Pooled drug test results. Numbers come from NIAID ChemDB, via PubChem.

Common to all: tests on isolated targets; agent: HIV-1; protein: Reverse transcriptase; endpoint: IC50

Blank or dashed fields: not listed here. ICn is the concentration giving n% inhibition. Conditions beyond the fields shown may differ between rows.

compound,strain,mutations,method,value
O=C1CSC(c2c(Cl)cccc2Cl)N1C1CCCCC1,-,-,ELISA,>10 µg/mL
N#Cc1ccc(NC(=S)N[C@@H]2[C@@H]3COc4c(F)ccc(F)c4[C@@H]32)nc1,-,K103N,scintillation proximity / radiometric,0.0087 µM
Cc1cccc2c1nc(-c1ccncc1)n2Cc1c(F)cccc1F,-,-,-,<10 µM
CN(C)c1ccc(C2SCC(=O)N2Cc2ccco2)cc1,-,-,ELISA,>10 µg/mL
NC(=O)OCc1cn(Cc2ccncc2)c(Sc2cc(Cl)cc(Cl)c2)c1C1CCC1,-,RT-L100I,nucleotide incorporation / radiometric,13.9 µM
CC[C@@H](C(=O)[C@@H](C)[C@@H](O)[C@H](C)[C@@H]1O[C@@H]([C@@H](CC)C(=O)O)CC[C@@H]1C)[C@H]1O[C@@]2(C=C[C@@H](O)[C@@]3(CC[C@@](C)([C@H]4CC[C@](O)(CC)[C@H](C)O4)O3)O2)[C@H](C)C[C@@H]1C,-,-,RT activity,>100 µg/mL
Cc1ccc(CN2C(=O)CSC2c2c(F)cccc2Cl)o1,-,-,ELISA,<10 µg/mL
CC(C)Nc1cccnc1N1CCN(C(=O)c2cc3ccccc3[nH]2)CC1,-,-,nucleotide incorporation,0.97 µM
Oc1cc(O)c2c(c1)O[C@H](c1cc(O)c(O)c(O)c1)[C@H](O)C2,-,-,-,>10 µM
CC[C@@H]1O[C@@H]([C@]2(C)C[C@@H](C)[C@](O)([C@]3(C)CC[C@@H]([C@@H](O)[C@]4(O)O[C@H](C[C@@]5(O)O[C@@H]([C@@H](C)[C@H](O)C[C@@H]6O[C@H]([C@@H](C)C(=O)O)[C@@H](C)C[C@H]6C)CC[C@@H]5C)[C@@H](C)C[C@H]4C)O3)O2)CC[C@@]1(C)O,-,-,RT activity,>100 µg/mL
Nc1ncnc2c1ncn2CCOCP(=O)(O)OP(=O)(O)OP(=O)(O)O,-,-,nucleotide incorporation,0.083 µM
CC(C)c1c(CO)cn(Cc2ccncc2)c1Sc1cc(Cl)cc(Cl)c1,-,-,nucleotide incorporation / radiometric,0.2 µM
O=C(OC1[C@H](OC(=O)c2cc(O)c(O)c(O)c2)CC(O)(C(=O)O)C[C@H]1OC(=O)c1cc(O)c(O)c(O)c1)c1cc(O)c(O)c(O)c1,-,-,-,0.08 µM
OCc1cn(Cc2ccncc2)c(Sc2cc(Cl)cc(Cl)c2)c1C1CCC1,-,RT-K103N,nucleotide incorporation / radiometric,43.3 µM
Cc1ccc(CCNC(=S)Nc2ccc(Br)cn2)cc1,-,-,scintillation proximity,0.4 µM
O=C1CSC(c2c(F)cccc2F)N1Cc1ccco1,-,-,ELISA,>10 µg/mL
O=C(Nc1cc(-c2ccc3c(c2)CCCC3)[nH]n1)c1cccs1,NL4-3,WT,RT activity / nucleotide incorporation / luminescence,1.5 µM
Cc1cccc2c1nc(-c1c(F)cccc1F)n2Cc1c(F)c(F)c(F)c(F)c1F,-,-,-,<10 µM
Cc1cn([C@H]2CC[C@@H](OCP(=O)(O)OP(=O)(O)OP(=O)(O)O)[C@@H]2F)c(=O)[nH]c1=O,-,-,RT activity,0.43 µM
O=C(Nc1nnc(-c2ccc3c(c2)CCCC3)o1)C1=COCCO1,NL4-3,K103N/Y181C,RT activity / nucleotide incorporation / luminescence,0.75 µM
COc1ccc(CCNC(=S)Nc2ccc(Br)cn2)cc1,-,-,scintillation proximity,1 µM
CCOC(=O)c1cn(Cc2ccncc2)c(Sc2cc(Cl)cc(Cl)c2)c1C1CCC1,-,-,nucleotide incorporation / radiometric,1.04 µM
O=C1CCSC(c2c(Cl)cccc2Cl)N1Cc1ccco1,-,-,ELISA,<10 µg/mL
O=C(/C=C/c1ncc(-c2ccccc2)cn1)Nc1cc(-c2ccc3c(c2)CCCC3)[nH]n1,NL4-3,K103N,RT activity / nucleotide incorporation / luminescence,0.19 µM
O=C(O)C1=CC(O)C(OC(=O)c2cc(O)c(O)c(O)c2)[C@H](O)C1,-,-,-,>333 µg/mL
CC(=O)Oc1cccc(OC(C)=O)c(=O)c1OC(C)=O,-,-,radiometric,1000 µM
COC1CCC(OC2CC(C)(C3CCC(C4OC(C)(O)C(C)CC4C)O3)OC2C2(C)CC(C)C3(OC(CC4OC(O)(C(C)C(=O)O)C(C)C(OC)C4OC)CC(OC)C3C)O2)OC1C,-,-,RT activity,>100 µg/mL
Cc1cccc2nc(-c3c(F)cccc3F)n(Cc3c(F)cccc3F)c12,-,-,-,>10 µM
COc1ccc2c(c1)N(C(=O)OC(C)C)[C@@H](CSC)C(=S)N2,-,RT-G190E,scintillation proximity / radiometric,>29 µM
Cc1c(C(=O)N(C)Cc2cccnc2)[nH]c(C(N)=O)c1S(=O)(=O)c1ccccc1,NL4-3,Y181C,RT activity / nucleotide incorporation / luminescence,5.5 µM
O=C(O)[C@H]1O[C@@H](Oc2cc3oc(-c4ccccc4)cc(=O)c3c(O)c2O)[C@H](O)[C@@H](O)[C@@H]1O,-,-,-,2 µg/mL
C=C(C)OC(=O)N1c2cc(Cl)ccc2NC(=S)C1(C)C,MN,-,nucleotide incorporation,0.14 µM
Cc1nc(N2C(=O)CSC2c2c(F)cccc2F)ccc1Br,-,-,ELISA,>10 µg/mL
Fc1cccc(F)c1Cn1c(-c2c(F)cccc2F)nc2cc(Cl)ccc21,-,-,-,~10 µM
Cc1cn([C@H]2C[C@H](N=[N+]=[N-])[C@@H](COP(=O)(O)OP(=O)(O)OP(=O)(O)O)[C@@H]2F)c(=O)[nH]c1=O,-,-,RT activity,13.9 µM
O=C(c1c(F)cccc1F)n1c(-c2c(F)cccc2F)nc2ccccc21,-,-,-,<10 µM
O=C(O)C1=C[C@@H](O)[C@@H](OC(=O)c2cc(O)c(O)c(O)c2)[C@H](OC(=O)c2cc(O)c(O)c(O)c2)C1,-,-,-,1.77 µM
CCCc1cccnc1N(C)C1CCN(C(=O)c2cc3cc(NS(C)(=O)=O)ccc3[nH]2)CC1,IIIB,-,nucleotide incorporation,<1 µM
OCc1cn(Cc2ccncc2)c(Sc2cc(Cl)cc(Cl)c2)c1C1CCCCC1,-,-,nucleotide incorporation / radiometric,38.2 µM
O=C(O)C1=CC(OC(=O)c2cc(O)c(O)c(O)c2)C(O)[C@H](O)C1,-,-,-,>333 µg/mL
Cc1ccc2c(nc(-c3c(F)cccc3F)n2Cc2c(F)cccc2F)c1C,-,-,-,>10 µM
O=C(/C=C/c1ncccn1)Nc1cc(-c2ccc3c(c2)CCCC3)[nH]n1,NL4-3,K103N,RT activity / nucleotide incorporation / luminescence,0.22 µM
COc1ccccc(-c2cncnc2)c1=O,-,-,radiometric,>1000 µM
O=C(O[C@@H]1[C@H](O)C[C@@](O)(C(=O)O)C[C@H]1OC(=O)c1cc(O)c(O)c(O)c1)c1cc(O)c(O)c(O)c1,-,-,-,7.81 µM
Nc1nc2c(ncn2[C@H]2CC[C@@H](COP(=O)(O)OP(=O)(O)OP(=O)(O)O)O2)c(=O)[nH]1,-,-,nucleotide incorporation,0.08 µM
Nc1nc2c([nH]c[n+]2[C@H]2C=C[C@@H](OCP(=O)(O)OP(=O)(O)OP(=O)(O)O)C2)c(=O)[nH]1,-,-,RT activity,0.06 µM

Repeating the final 6 entries:

compound	strain	mutations	method	value
Cc1ccc2c(nc(-c3c(F)cccc3F)n2Cc2c(F)cccc2F)c1C	-	-	-	>10 µM
O=C(/C=C/c1ncccn1)Nc1cc(-c2ccc3c(c2)CCCC3)[nH]n1	NL4-3	K103N	RT activity / nucleotide incorporation / luminescence	0.22 µM
COc1ccccc(-c2cncnc2)c1=O	-	-	radiometric	>1000 µM
O=C(O[C@@H]1[C@H](O)C[C@@](O)(C(=O)O)C[C@H]1OC(=O)c1cc(O)c(O)c(O)c1)c1cc(O)c(O)c(O)c1	-	-	-	7.81 µM
Nc1nc2c(ncn2[C@H]2CC[C@@H](COP(=O)(O)OP(=O)(O)OP(=O)(O)O)O2)c(=O)[nH]1	-	-	nucleotide incorporation	0.08 µM
Nc1nc2c([nH]c[n+]2[C@H]2C=C[C@@H](OCP(=O)(O)OP(=O)(O)OP(=O)(O)O)C2)c(=O)[nH]1	-	-	RT activity	0.06 µM